Values from PubChem BioAssay AID504761 (Drosophila RNAi Screening Center, 2011).
The deposit covers about 22,000 reagents; below is an unselected part of those that have a named target and a result. Of all reagents, 116 (0.52%) were called active. 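Calls depend on retest data that are not deposited; infection was ranked per plate without normalising between plates; the unit of the infection score is not given.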 The raw values are shown without normalisation. Reagents against one gene are numbered here. Not all columns of the deposit are shown. Not stated in the record: the amount of reagent, the time to read-out.

- Test: 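Insect host genes that dengue virus relies on to spread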 (primary screen)
- Cell system: D.Mel-2 cells from Drosophila
- Reagents: long dsRNA against Drosophila genes
- Challenge: infection with dengue virus type 2; dose and infection time not stated
- Measurement: 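Cells stained for dengue envelope protein and imaged; percent of infected cells per well on duplicate plates, ranked by infection, with stained nuclei counted for cell number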
- Direction: infection score: higher = more virus-infected cells; cell count: higher = more cells in the well
- Call rule: 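Very low infection ranking in both replicate wells (chance probability at most 0.065), then a retest showing infection dropped 1.5-fold or more at p below 0.05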
- Meaning of the calls: active = confirmed: knock-down lowers infection; inactive = not picked or not confirmed

Against stumps #1 the deposit lists infection score, replicate 1 = 3.37; cell count, replicate 1 = 6105; inactive.
stumps #2 showed infection score, replicate 1 = 9.03; cell count, replicate 1 = 7212; inactive.
For Kpc1, the entry reads infection score, replicate 1 = 6.88; cell count, replicate 1 = 6451; inactive.
For Tmtc4, the entry reads infection score, replicate 1 = 0.81; cell count, replicate 1 = 6565; inactive.
CG13438 scored infection score, replicate 1 = 3.46; cell count, replicate 1 = 5925; inactive.
Depletion of Dcr-1 #1 resulted in: infection score, replicate 1 = 19; cell count, replicate 1 = 6367; inactive.
With knock-down of Dcr-1 #2, the screen gave infection score, replicate 1 = 19.1; cell count, replicate 1 = 6730; inactive.
Against Sry-delta, the entry reads infection score, replicate 1 = 3.29; cell count, replicate 1 = 5813; inactive.
After knock-down of CG15602 #1 the results were infection score, replicate 1 = 12.8; cell count, replicate 1 = 5770; inactive.
After knock-down of CG15602 #2, the record shows infection score, replicate 1 = 9.08; cell count, replicate 1 = 6820; inactive.

Already shown: an excerpt of the list.
CG15602 #1 | infection score, replicate 1 = 12.8; cell count, replicate 1 = 5770; Call = inactive
CG15602 #2 | infection score, replicate 1 = 9.08; cell count, replicate 1 = 6820; Call = inactive

Next entries:
With knock-down of CG13390 #1, the screen gave infection score, replicate 1 = 3.54; cell count, replicate 1 = 5679; inactive.
CG13390 #2 gave infection score, replicate 1 = 9.02; cell count, replicate 1 = 6560; inactive.
For CG3483, the entry reads infection score, replicate 1 = 37.3; cell count, replicate 1 = 6478; inactive.
CG10140 #1 showed infection score, replicate 1 = 0.71; cell count, replicate 1 = 6015; inactive.
CG10140 #2 showed infection score, replicate 1 = 6.79; cell count, replicate 1 = 6317; inactive.
CG15394 showed infection score, replicate 1 = 13.2; cell count, replicate 1 = 6275; inactive.
For Ubi-p63E, the entry reads infection score, replicate 1 = 6.34; cell count, replicate 1 = 6882; inactive.
For CG13287 #1 the deposit lists infection score, replicate 1 = 6.13; cell count, replicate 1 = 6365; inactive.
CG13287 #2 scored infection score, replicate 1 = 8.71; cell count, replicate 1 = 6107; inactive.
r #1 showed infection score, replicate 1 = 26.8; cell count, replicate 1 = 5157; inactive.
With knock-down of r #2, the screen gave infection score, replicate 1 = 5.99; cell count, replicate 1 = 6946; inactive.
